# PSTVd loop 27 mutant pool in Nicotiana benthamiana

Reference: Wu et al. 2024, doi:10.1371/journal.ppat.1012142.

The pool varies loop 27 of the PSTVd intermediate strain in the pattern UNNNNA; wild type is UUUUCA (5' to 3', with the closing base pair).

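A pool of all variants was put on leaves of three Nicotiana benthamiana plants. Samples came from the inoculated region at 5 days, the leaf margin at 10 and upper systemic leaves at 12.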

Values are reads per thousand in the sample; higher means more abundant, 0 means not found. Each value is the mean of three plants. "Pool" is the share in the plasmid pool used as inoculum, on the same scale. The inoculated region was read from the minus strand, the other sites from the plus strand. Samples held 30,013 to 65,426 reads, so the smallest values rest on one or two reads. Sequences that differ at fixed positions probably stem from PCR or sequencing errors, and defective variants can be carried along by functional ones. Wild type was 39.4 per thousand in the pool and the most common sequence in every sample (inoculated region 155, 124, 130; leaf margin 823, 907, 920; systemic leaves 805, 787, 933).

| # | sequence | pool | inoculated region | leaf margin | systemic leaves |
|---|---|---|---|---|---|
| 1 | AAACGA | 0.0136 | 0 | 0 | 0 |
| 2 | GUGGUA | 0.0272 | 0.0185 | 0 | 0 |
| 3 | UAAAGA | 4.10 | 1.89 | 0.151 | 0.0173 |
| 4 | UAAUUC | 0.136 | 0.0466 | 0 | 0 |
| 5 | UACCAA | 4.01 | 4.20 | 0.377 | 0.0561 |
| 6 | UACUAA | 2.43 | 1.08 | 0.189 | 0.162 |
| 7 | UACUCA | 1.15 | 2.21 | 0.340 | 0.0233 |
| 8 | UAGCCA | 3.14 | 1.08 | 0.0991 | 0.0299 |
| 9 | UAUCCA | 0.978 | 2.05 | 0.404 | 0.0224 |
| 10 | UCACGA | 2.53 | 0.624 | 0.0510 | 0.0677 |
| 11 | UCGGGA | 10.5 | 4.77 | 0.356 | 0.111 |
| 12 | UGAACA | 1.21 | 0.469 | 0.0672 | 0.0117 |
| 13 | UGGGAA | 5.66 | 1.98 | 0.352 | 0.0464 |
| 14 | UUCAGA | 0.774 | 0.582 | 0.145 | 0.0117 |
| 15 | UUUCGA | 2.55 | 1.65 | 0.135 | 0.0226 |

2 of these entries, quoted again:

| sequence | pool | inoculated region | leaf margin | systemic leaves |
|---|---|---|---|---|
| UUCAGA | 0.774 | 0.582 | 0.145 | 0.0117 |
| UAAUUC | 0.136 | 0.0466 | 0 | 0 |